Data on four sequences can be found in publication PMC4929490.

This data set concerns the target GST-TaRIM1 (Triticum aestivum (line CI12633)) (UniProt A0A182BBB2). The data set can be described thus: EMSA. Conditions: ~2 ug protein in binding buffer (composition, salt and pH not given), on ice 6 h, 8% polyacrylamide gel, 100 V 30 min, ethidium bromide stain, recombinant protein, protein details: N-terminal GST (pGEX-4T-1). (Mobility shift assays separate free from complexed probe on a gel.)

For at least one entry, the source does not settle the construct or the ends of the probe. Negatives hold for the conditions tested.

As for “TGCCAGTCGCAGTTAGACGTGCCAGTCGCAGTTAGACGTGC / CACGTCTAACTGCGACTGGCACGTCTAACTGCGACTGGCA [MBS1-Bz]”, the binding result is “binds”.

Consider “AGTCGACGTGGATAATGGATCCTCGAGTGGATAATTCGATC (double strand) [St1R]”, for which the binding result was “binds”. “AGTCGACCCACCTACCGCGGATCCTCGACCCACCTACCGTCGATC (double strand) [ACI (AC)]”: the binding result (strongest binding of the 5 MBS probes) was “binds”. “AATTCATAAGAGCCGCCACTCATAAGAGCCGCCACTCCC (double strand) [GCC-box]”: the binding result was “no binding”.
